Pooled drug test results. Numbers come from NIAID ChemDB, via PubChem.

Shared fields: tests in culture; organism: Mycobacterium tuberculosis

Inhibition is in % at the dose shown (toxicity tests: loss of growth or viability).

SMILES,strain,method,cells,mutations,tested at,measure,conditions,result
Cc1cc(NCCCCCCCNc2cc(C)nc3cc(N(C)C)ccc23)c2ccc(N(C)C)cc2n1,H37Rv,BACTEC,,,12.5 µg/mL,inhibition,,87%
C=C[C@@](C)(CC[C@H]1C(=C)CC[C@H]2C(C)(C)CCC[C@]12C)OC(C)=O,H37Rv,resazurin,,,6.25 µg/mL,inhibition,,8%
Cc1cc(N/N=C/c2ccccn2)nc2ccccc12,H37Rv,,,,,MIC,,6.25 µg/mL
C=CC(C)(CC/C=C(\C)CC/C=C(\C)CCC=C(C)C)OC(C)=O,H37Rv,resazurin,,,6.25 µg/mL,inhibition,,75%
COc1c(N2C[C@@H]3C(N)[C@@H]3C2)c(F)cc2c(=O)c(C(=O)O)cn(-c3ccc(F)cc3F)c12,,,,,,MIC,,256 µg/mL
CCOC(=O)CC1NC(=O)CNC1=O,H37Rv,BACTEC,,,12.5 µg/mL,inhibition,,17%
CC1=[N+](C)N(c2ccccc2)C(=O)C1Nc1nc(Nc2ccc(C#N)cc2)nc(Oc2cc(=O)n(C)c3ccccc23)n1,,agar,,,,MIC,,62.5 µg/mL
CCc1nc2ccc(Cl)cn2c1C(=O)NCc1ccc(N2CCC(c3ccc(OC(F)(F)F)cc3)CC2)cc1,Erdman,resazurin,,,,EC50,,0.001 µM
O=c1[nH]nc(Nc2ccc(Cl)cc2)c2nnn(C3CCCCC3)c12,H37Rv,resazurin,,,6.25 µg/mL,inhibition,,-8%
O=[N+]([O-])c1ccc(-n2cnc([N+](=O)[O-])n2)cc1,H37Rv,,,,6.25 µg/mL,inhibition,,7%
CN(C)CCCOc1cc(Nc2cc(C3CC3)[nH]n2)nc(-c2ccccc2)n1,H37Rv,,,,,MIC99,,5 µM
C=CCOc1ccc(N=c2scc(CCN3CCCCC3)n2-c2ccc(OCC=C)cc2)cc1,H37Rv,,,,,MIC,,24 µg/mL
Nc1ncnc2c1nc1n2C2OC(CO)C(O)C2O1,H37Rv,,,,,MIC bound,,>6.25 µg/mL
CC1(C)O[C@H]2[C@@H]([C@@H](O)Cn3cc([N+](=O)[O-])nc3[N+](=O)[O-])OC[C@H]2O1,H37Rv,,,,,MIC,,6.25 µg/mL
CCOC(=O)/C(C#N)=C\c1ccc(N(CCC(=O)O)CCC(=O)O)c(I)c1,H37Rv,BACTEC,,,,MIC bound,,>12.5 µg/mL
CCCCOc1ccc(N=c2scc(C)n2-c2ccc(OCCN(CC)CC)cc2)cc1,H37Rv,,,,,MIC,,32 µg/mL
Cn1c(=O)cc(Oc2nc(Nc3ccc(C#N)cc3)nc(Nc3nc4ccccc4s3)n2)c2ccccc21,,agar,,,,EC95,,200 µg/mL
CC(CCN1CCN(CCC(C)CC(C)(C)C)C1=O)CC(C)(C)C,H37Rv,BACTEC,,,,MIC bound,,≤12.5 µg/mL
C=CCOc1ccc(N=c2scc(C)n2-c2ccc(OCC=C)cc2)cc1,H37Rv,,,,,MIC,,4 µg/mL
CC(C)N=c1cc2n(-c3cccnc3)c3ccccc3nc-2cc1Nc1cccnc1,H37Rv,resazurin,,,,MIC90,,1.23 µg/mL
CO[C@H]1/C=C/O[C@@]2(C)Oc3c(C)c(O)c4c(O)c(c(/C=N/N5CCN(C)CC5)c(O)c4c3C2=O)NC(=O)/C(C)=C\C=C\[C@H](C)[C@H](O)[C@@H](C)[C@@H](O)[C@@H](C)[C@H](OC(C)=O)[C@@H]1C,Clinical isolate 1,,,,,MIC,,0.5 µg/mL
Cc1c(OCC(F)(F)F)ccnc1CSc1nc2ccccc2[nH]1,HN878,resazurin,,,,MIC90,,1.74 µM
CCCCCCCCCCCCN1c2ccccc2Sc2ccccc21,H37Ra,broth dilution,,,,MIC,,>64 µg/mL
C=C1CCCC(C)(C)[C@@H]1CC/C(C)=C/CC/C(C)=C/CO,H37Rv,resazurin,,,6.25 µg/mL,inhibition,,36%
CCc1nc(NC(C(=O)O)C(C)C)c2cc(C)sc2n1,Erdman,resazurin,,,,EC50,,2.3 µM
COc1ccc(CCN)cc1,BCG,,,,,MIC,,100 µg/mL
Cc1ccc(-n2c3cc(=NC(C)C)c(Nc4ccc(Cl)cc4)cc-3nc3ccccc32)cc1,H37Rv,resazurin,,,,MIC90,,>42.45 µg/mL
Cc1c(F)c(N2CCNC(C)C2)cc2c1c(=O)c(C(=O)O)cn2C1CC1,,,,,,MIC,,1 µg/mL
CO[C@H]1/C=C/O[C@@]2(C)Oc3c(C)c(O)c4c(O)c(c(/C=N/N5CCCC5)c(O)c4c3C2=O)NC(=O)/C(C)=C\C=C\[C@H](C)[C@H](O)[C@@H](C)[C@@H](O)[C@@H](C)[C@H](OC(C)=O)[C@@H]1C,H37Rv,,,,,MIC,,0.2 µg/mL
CCCc1ccc(N=c2scc(C)n2-c2ccc(CCC)cc2)cc1,H37Rv,,,,,MIC,,4 µg/mL
S=c1[nH]nc2nc3c4ccccc4c4ccccc4c3nn12,H37Rv,BACTEC,,,12.5 µg/mL,inhibition,,28%
CC(C)CCOc1ccc(N=C2SCC(=O)N2c2ccc(OCCC(C)C)cc2)cc1,H37Rv,,,,,MIC,,32 µg/mL
COc1ccc2c(c1)[n+]([O-])c(/C(C)=N/NC(=O)c1ccccc1O)c(C)[n+]2[O-],KM-R,,,,,MIC,,12.5 µg/mL
CCc1ccc([C@H]2C[C@@H](C(F)(F)F)n3ncc(C(=O)NCc4ccc(OC)cc4)c3N2)cc1,H37Rv,fluorescence,,MmpL3: Tyr252Cys,,fold resistance,,4
COc1ccc2c(c1)OCC1c3cc(OC)c(OCc4ccccc4)cc3O[C@H]21,H37Rv,BACTEC,,,12.5 µg/mL,inhibition,,36%
Cn1c(=O)cc(Oc2nc(Nc3ccc(C#N)cc3)nc(Nc3nc4ccc(Cl)cc4s3)n2)c2ccccc21,,agar,,,100 µg/mL,inhibition,,95%
CO[C@H]1/C=C/O[C@@]2(C)Oc3c(C)c(O)c4c(O)c(c(C=NN5CCCCC5)c(O)c4c3C2=O)NC(=O)/C(C)=C\C=C\[C@H](C)[C@H](O)[C@@H](C)[C@@H](O)[C@@H](C)[C@H](OC(C)=O)[C@@H]1C,H37Rv,,,,,MIC,,0.05 µg/mL
Nc1ccc(C(=O)O)c(O)c1,Clinical isolate 4,,,,,MIC,,1 µg/mL
C[C@@H]1CN(c2c(F)c(N)c3c(=O)c(C(=O)O)cn(C4CC4)c3c2F)C[C@H](C)N1,,,,,,MIC,,0.25 µg/mL
CCCCNc1nc(CC)nc2sc(C)cc12,Erdman,resazurin,,,,EC50,,2.7 µM
CC1(C)O[C@H]2[C@@H]([C@@H](O)Cn3cnc([N+](=O)[O-])c3)OC[C@H]2O1,H37Rv,,,,,MIC,,12.5 µg/mL
COC(=O)CC[C@@H](C)[C@H]1CCC2C3C(C[C@H](O)[C@@]21C)[C@@]1(C)CC[C@H](n2cc(CNCCNc4ccnc5cc(Cl)ccc45)nn2)C[C@H]1C[C@H]3O,H37Rv,resazurin,,,,MIC90,,8.8 µM
CN(C)[C@@H]1CCN(c2cc(Nc3ccc(C(F)(F)F)cn3)nc(-c3ccccc3)n2)C1,H37Rv,resazurin,,,,MIC90,,16 µM
Nc1ccn([C@@H]2CS[C@H](CO)O2)c(=O)n1,H37Rv,BACTEC,,,,MIC bound,,>12.5 µg/mL
C=CC(C)(O)CCC=C(C)CCC=C(C)C,H37Rv,resazurin,,,,MIC,,32 µg/mL
CCCc1ccc(N=c2scc(CCN3CCCCC3)n2-c2ccc(CCC)cc2)cc1,H37Rv,,,,,MIC,,12 µg/mL
O=[N+]([O-])[O][Ga]([O][N+](=O)[O-])[O][N+](=O)[O-],H37Ra,,,,,EC50,inside macrophages,<375 µM
c1ccc(-c2nc(Nc3cc(C4CC4)[nH]n3)cc(OCCN3CCCC3)n2)cc1,H37Rv,,,,,MIC99,,20 µM
Cc1nc([N+](=O)[O-])cn1C[C@H](O)[C@H]1OC[C@H]2OC(C)(C)O[C@@H]12,H37Rv,,,,,MIC,,>25 µg/mL
Br.COc1ccc(OC)c2c1nc(CBr)n2C,H37Rv,BACTEC,,,12.5 µg/mL,inhibition,,0%
Cn1c(=O)cc(Oc2nc(Nc3ccc(C#N)cc3)nc(Sc3nnc(-c4ccncc4)o3)n2)c2ccccc21,,agar,,,,MIC,,62.5 µg/mL
CO[C@H]1C([C@H]2Cn3cc([N+](=O)[O-])nc3O2)O[C@@H]2OC(C)(C)O[C@@H]21,H37Rv,,,,,MIC,,25 µg/mL
CCc1nc(NCCCc2ccccc2)c2cc(C)sc2n1,Erdman,resazurin,,,,EC50,,0.042 µM
O=C1C2=C(OCO2)C(=O)C2=C1OCO2,H37Rv,BACTEC,,,12.5 µg/mL,inhibition,,34%
Cn1c(=O)cc(Oc2nc(Nc3ccc(C#N)cc3)nc(Oc3cc(=O)n(C)c4ccccc34)n2)c2ccccc21,,agar,,,50 µg/mL,inhibition,,96%
CN1CCN(c2ccc(Nc3ncc(Br)c(NCC(C)(C)CNC(=O)C4CCC4)n3)cn2)CC1,H37Rv,resazurin,,,,MIC90,,64 µM
COc1cccc2c1C(=O)c1c(O)c3c(c(O)c1C2=O)C[C@@](O)(/C(C)=N/NC(=O)CO)CC3OC1CC(N)C(O)C(C)O1.Cl,KM-R,,,,,MIC,,12.5 µg/mL
CC(=O)NC[C@H]1CN(c2ccc(N3CCN(Cc4ccc([N+](=O)[O-])o4)CC3)c(F)c2)C(=O)O1,59 isolates,,,,,Geometric mean MIC,,2.303 µg/mL
CC1(C)O[C@H]2[C@@H]([C@H]3Cn4cc([N+](=O)[O-])nc4O3)OC[C@H]2O1,H37Rv,,,,,MIC,,6.25 µg/mL
CC1(C)Cc2[nH]c3ccccc3c(=O)c2-c2nc3ccccc3c(=O)n21,H37Rv,BACTEC,,,,MIC,,≥12.5 µg/mL
Cc1nc([N+](=O)[O-])cn1-c1ccc([N+](=O)[O-])cc1,H37Rv,,,,6.25 µg/mL,inhibition,,83%
Oc1ccc(CCN=C=S)cc1,CDC1561,visual reading,,,,MIC,,16 µg/mL
CNc1cc2nc3ccccc3n(-c3ccc(Cl)cc3)c-2cc1=NC(C)C,H37Rv,resazurin,,,,MIC90,,21.23 µg/mL
CCN(CC)CCOc1cc(Nc2cc(C3CC3)[nH]n2)nc(-c2ccccc2)n1,H37Rv,,,,,MIC99,,5 µM
NNC(=O)/C=C/c1ccc(Cl)cc1,BCG,,,,,MIC,,2 µg/mL
CC(=O)OC/C=C(\C)CC/C=C(\C)CC/C=C(\C)CCC=C(C)C,H37Rv,resazurin,,,6.25 µg/mL,inhibition,,98%
Cn1c(=O)cc(Oc2nc(Nc3ccc(C#N)cc3)nc(Nc3nc4ccc(F)cc4s3)n2)c2ccccc21,,agar,,,,MIC,,25 µg/mL
COc1ccc(C(=O)/C(Br)=C/C(=O)O)cc1,H37Rv,BACTEC,,,12.5 µg/mL,inhibition,,-1%
CCCCc1ccc(N=c2scc(C)n2-c2ccc(CCCC)cc2)cc1,H37Rv,,,,,MIC,,>32 µg/mL
CO/N=C/c1c2c(O)c3c(O)c(C)c4c(c3c1O)C(=O)[C@@](C)(O/C=C/[C@H](OC)[C@@H](C)[C@@H](OC(C)=O)[C@H](C)[C@H](O)[C@H](C)[C@@H](O)[C@@H](C)/C=C/C=C(/C)C(=O)N2)O4,H37Rv,,,,,MIC,,0.1 µg/mL
CCOc1ccccc1Nc1nc(C)c(C(=O)CC(=O)C(=O)Nc2ccccc2)s1,H37Rv,resazurin,,,6.25 µg/mL,inhibition,,1%
CC(C)[C@@H]1CCN(c2cc(Nc3ccccn3)nc(-c3ccccc3)n2)C1,H37Rv,,,,,MIC99,,10 µM
O=C1OCC(O)C(O)C(O)C(O)C1O,H37Rv,BACTEC,,,12.5 µg/mL,inhibition,,-8%
CC1(C)O[C@H]2[C@@H]([C@@H]3Cn4cc([N+](=O)[O-])nc4O3)OC[C@H]2O1,H37Rv,,,,,MIC,,12.5 µg/mL
Cc1ccc(/C=C/C(=O)NN)cc1,BCG,,,,,MIC,,5 µg/mL
Cn1c(=O)cc(Oc2nc(Nc3ccc(C#N)cc3)nc(Sc3nc4ccccc4s3)n2)c2ccccc21,,agar,,,,MIC,,100 µg/mL
CC(=O)OC/C=C(\C)CC/C=C(\C)CCC=C(C)C,H37Rv,resazurin,,,6.25 µg/mL,inhibition,,31%
NNC(=O)c1ccncc1,H37Rv,,,,,MIC,,0.05 µg/mL
CN(C)c1ccc(-c2nnc3c(c(=O)n(C)c(=O)n3C)[n+]2[O-])cc1,H37Rv,,VERO,,,MIC,,1.56 µg/mL
CNC1[C@H]2CN(c3nc4c(cc3F)c(=O)c(C(=O)O)cn4-c3ccc(F)cc3F)C[C@@H]12,,,,,,MIC,,16 µg/mL
CN[C@@H]1[C@H](O[C@H]2[C@H](O[C@H]3[C@H](O)[C@@H](O)[C@H](N=C(N)N)[C@@H](O)[C@@H]3N=C(N)N)O[C@@H](C)[C@]2(O)C=O)O[C@@H](CO)[C@H](O)[C@H]1O,Clinical isolate 9,,,,,MIC,,100 µg/mL
NN1C(=O)C2C3C=CC(O3)C2C1=O,H37Rv,BACTEC,,,,MIC bound,,>12.5 µg/mL
Cc1ccc2nc(Nc3nc(Nc4ccc(C#N)cc4)nc(Oc4cc(=O)n(C)c5ccccc45)n3)sc2c1,,agar,,,250 µg/mL,inhibition,,94%

5 of the rows above, restated:

SMILES	strain	method	cells	mutations	tested at	measure	conditions	result
CCCCNc1nc(CC)nc2sc(C)cc12	Erdman	resazurin				EC50		2.7 µM
CCc1nc(NC(C(=O)O)C(C)C)c2cc(C)sc2n1	Erdman	resazurin				EC50		2.3 µM
CN(C)[C@@H]1CCN(c2cc(Nc3ccc(C(F)(F)F)cn3)nc(-c3ccccc3)n2)C1	H37Rv	resazurin				MIC90		16 µM
Nc1ccc(C(=O)O)c(O)c1	Clinical isolate 4					MIC		1 µg/mL
CO/N=C/c1c2c(O)c3c(O)c(C)c4c(c3c1O)C(=O)[C@@](C)(O/C=C/[C@H](OC)[C@@H](C)[C@@H](OC(C)=O)[C@H](C)[C@H](O)[C@H](C)[C@@H](O)[C@@H](C)/C=C/C=C(/C)C(=O)N2)O4	H37Rv					MIC		0.1 µg/mL

An empty or dashed field is not shown. Lines come from different laboratories, so protocols vary. Fold resistance: result on the changed form divided by that on wild type. MIC50, MIC90 and the like: level of inhibition, or share of isolates inhibited. ECn: concentration that inhibits the pathogen or its effect by n%. MIC bound: limit read from a one-dose screen.